# The exact form of at least one protein or probe is not confirmed.
# Target: M.HaeIII DNA methyltransferase (UniProt P20589)
# Experiment: activity assay
# Settings: background 501; purified recombinant protein
sequence,measurement,value
GGTGGGAGAAGAAGATAAAAAGTAACATCTTTCTGCCTTCCAGATGATTCGAAGAATTTCTCCATCCAAGTGCGGCAGGTGGAGGATTGCCCTGTGGACATCTACTACTTGATGGACCTGTCTTACTCCATGCCGGATGATCTGTGGAGCATCCAGAACCTGGGTACCAAGCTGGCCACCCAGATGCGAAAGCTCACCAGTAACCTGCGGATTGGCTTCGGGGCATTTGTGGACAAGCCTGTGTCACCATACATGTATATCTCCCCACCAGAGGCCCTCGAAAACCCCTGCTATGAGTAAGTCCCTCCTCCAGACGCCAGGACAGCATCCTTTGCCCAGGAAGGTCCAAGTCCTGGTTCCTA (double strand) [GPIIIa Yukb/b 362 bp amplicon],activity on this sequence,34200 cpm

# Source: patent US6514698
